Laboratory results: PubChem BioAssay AID624099 (ICCB-Longwood, 2012)

- Aim: 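Knock-downs relieving repression by E2 of an HPV18 LCR luciferase reporter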 (primary screen)
- Cells: human C33A cervical carcinoma cells (HPV-negative) stably expressing BPV1 E2 and an HPV18 LCR luciferase reporter
- Knock-down reagent: siRNA pool against human genes, 40 nM
- Timing: 72 h
- Measured: 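HPV18 LCR reporter light per well, converted to plate-wise z-scores that exclude control wells, and averaged over triplicate plates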
- Direction: mean z-score and z-score: higher = stronger reporter signal, weaker E2 silencing
- Hit rule: 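Hit if mean z-score reaches 2 and two or more of three replicate z-scores also reach 2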
Here is one part, drawn at random, of about 21,000 reagents. In the full data, 497 (2.4%) are marked active. 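Higher z means weaker E2 silencing; only reporter increases were scored, and knock-downs that hurt cell survival may mask genuine repressor factors.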 Reagents against one gene are numbered here. Reagent sequences are not shown.

no.	target	pool no.	mean z-score	z-score, replicate A	z-score, replicate B	z-score, replicate C	Outcome
1	GPR174 (G protein-coupled receptor 174)	1	-0.83	-0.93	-0.9	-0.65	inactive
2	MAP2K4 (mitogen-activated protein kinase kinase 4)	1	-0.14	-0.31	-0.16	0.06	inactive
3	LILRB3 (leukocyte immunoglobulin like receptor B3)	1	-0.06	-0.1	-0.21	0.12	inactive
4	HOXC10 (homeobox C10)	1	1.71	1.63	1.91	1.59	inactive
5	NGRNP3 (NGRN pseudogene 3)	1	-0.74	-0.9	-0.91	-0.42	inactive
6	ARIH2 (ariadne RBR E3 ubiquitin protein ligase 2)	1	-0.87	-1.01	-0.93	-0.67	inactive
7	TIRAP (TIR domain containing adaptor protein)	1	-2.03	-1.79	-2.23	-2.08	inactive
8	MAFB (MAF bZIP transcription factor B)	1	1.32	1.29	1.59	1.09	inactive
9	DLG4 (discs large MAGUK scaffold protein 4)	1	-0.54	-0.71	-0.66	-0.23	inactive
10	TAS2R45 (taste 2 receptor member 45)	1	1.38	1.04	1.6	1.48	inactive
11	MED6 (mediator complex subunit 6)	1	-3.01	-3.11	-3.1	-2.82	inactive
12	ABHD3 (abhydrolase domain containing 3, phospholipase)	1	-0.71	-1.04	-0.6	-0.49	inactive
13	OIP5 (Opa interacting protein 5)	1	0.35	0.15	0.34	0.55	inactive
14	ACAT1 (acetyl-CoA acetyltransferase 1)	1	0.63	0.98	0.3	0.6	inactive
15	RAB40C (RAB40C, member RAS oncogene family)	1	-1.7	-2.07	-1.92	-1.12	inactive
16	STEAP1B (STEAP family member 1B)	1	1.88	1.09	2.62	1.93	inactive
17	KCTD10 (potassium channel tetramerization domain containing 10)	1	0.81	0.56	0.65	1.22	inactive
18	GTF2F2 (general transcription factor IIF subunit 2)	1	-0.35	-0.55	-0.36	-0.16	inactive
19	CENATAC (centrosomal AT-AC splicing factor)	1	1.51	1.98	1.45	1.1	inactive
20	MUC3A (mucin 3A, cell surface associated)	1	1.3	1.03	1.05	1.83	inactive
21	PKP1 (plakophilin 1)	1	-0.45	-0.5	-0.32	-0.54	inactive
22	LARGE1 (LARGE xylosyl- and glucuronyltransferase 1)	1	-0.21	-0.09	0	-0.54	inactive
23	CCDC13 (coiled-coil domain containing 13)	1	-0.15	-0.06	-0.5	0.1	inactive
24	NARS2 (asparaginyl-tRNA synthetase 2, mitochondrial)	1	-0.32	-0.42	-0.25	-0.3	inactive
25	LYZL4 (lysozyme like 4)	1	1.22	1.02	1.26	1.39	inactive
26	PTPN20 (protein tyrosine phosphatase non-receptor type 20)	1	1.34	1.39	1.14	1.49	inactive
27	GMPPB (GDP-mannose pyrophosphorylase B)	1	-0.86	-1.01	-0.91	-0.65	inactive
28	CCDC70 (coiled-coil domain containing 70)	1	0.68	0.8	0.73	0.52	inactive
29	ST3GAL3 (ST3 beta-galactoside alpha-2,3-sialyltransferase 3)	1	-0.02	-0.31	-0.01	0.26	inactive
30	TCAF2 (TRPM8 channel associated factor 2)	1	2.36	1.84	2.62	2.62	active
31	SLC6A18	1	-0.66	-0.56	-0.81	-0.62	inactive
32	AQP2 (aquaporin 2)	1	0.03	0.19	-0.1	0.02	inactive
33	GRIN2A (glutamate ionotropic receptor NMDA type subunit 2A)	1	-0.17	0.28	-0.44	-0.37	inactive
34	HELZ2 (helicase with zinc finger 2)	1	1.54	1.7	1.67	1.27	inactive
35	HELZ2 (helicase with zinc finger 2)	2	-0.91	-0.86	-0.91	-0.97	inactive
36	POMGNT2	1	1.54	1.46	1.57	1.59	inactive
37	H2BC10 (H2B clustered histone 10)	1	-0.51	-0.31	-0.94	-0.29	inactive
38	ARID1A (AT-rich interaction domain 1A)	1	1.5	1.68	1.2	1.61	inactive
39	DNAJB9 (DnaJ heat shock protein family (Hsp40) member B9)	1	0.76	0.9	0.76	0.63	inactive
